Results of unrelated studies side by side (data: NIAID ChemDB).

All rows: tests in culture; organism: Plasmodium falciparum

ECn is the concentration giving n% inhibition of infection, replication or growth.

COc1cc(OC)c(OC)cc1/C=C/C=C/C(=O)c1ccc(Cl)c(Cl)c1 ; strain: INDO ; read-out: EC50 ; read by: SYBR Green / fluorescence ; value: 53 µM
N=C(N)c1ccc(OCCCOc2ccc(C(=N)N)cc2)cc1 ; strain: W2 ; read-out: EC50 ; read by: hypoxanthine uptake ; value: 0.064 µM
C[C@H]1CCc2c([nH]c3ccccc23)[C@@]2(N1)C(=O)Nc1ccc(Cl)cc12 ; strain: Dd2 (EF1) ; read-out: EC50 ; read by: SYBR Green / fluorescence ; mutations: Multidrug-resistant ; value: 0.0275 µM
OCCN1CCN(C(c2ccccc2)c2ccccc2)CC1 ; strain: 7G8 ; read-out: EC50 ; read by: SYBR Green / fluorescence ; value: >2.5 µM
CC(C)=CCCC1CC2CCCC3CC(C)NC(=N1)N23 ; strain: D6 ; read-out: EC50 ; read by: LDH ; value: 6.54 µM
Fc1ccc(Nc2nc(NCCCCNc3ccnc4cc(Cl)ccc34)nc(N3CCOCC3)n2)cc1 ; strain: D6 ; read-out: EC50 ; value: 0.24 µM
CC1CC2CCCC3CC(CCc4ccccc4)N=C(N1)N32 ; strain: D6 ; read-out: EC50 ; read by: LDH ; value: 9.24 µM
COC(=O)c1ccc(-c2cc(C#N)cc(C3(C4CCC4)C(C#N)=C(N)Oc4n[nH]c(C)c43)c2)s1 ; strain: NF54 ; read-out: EC50 ; read by: radiometric ; value: 0.04 µM
Cc1c(O)c2ccccc2c2c1sc(NC1CCCCC1)[n+]2CCCN1CCOCC1 ; strain: Dd2 ; read-out: EC50 ; read by: hypoxanthine uptake ; value: 0.19 µM
CC(C)=CCCC1CC2CCC3CC(C)NC(=N1)N23 ; strain: D6 ; read-out: EC50 ; read by: LDH ; value: 16.05 µM
COCCn1cc(-c2ccnc(N)n2)c2cc(Br)ccc21 ; strain: D6 ; read-out: EC50 ; read by: LDH ; value: >14.43 µM
C=C[C@]1(C)C[C@H](OC(=O)C(=C)CO)[C@H]2C(=C)C(=C)C[C@@H]2C1C(=C)CO ; strain: Dd2 ; read-out: EC50 ; read by: SYBR Green ; cell line: Red blood cells ; value: 0.569 µg/mL
CC(C)=CCC[C@@H]1C[C@@H]2CC[C@@H]3C[C@H](CCC=C(C)C)NC(=N1)N32 ; strain: W2 ; read-out: EC50 ; read by: LDH ; value: 7.59 µM
N=C(N)c1cccc(OCCCCCCOc2cccc(C(=N)N)c2)c1 ; strain: W2 ; read-out: EC50 ; read by: hypoxanthine uptake ; value: 0.114 µM
COc1ccc(C(=O)/C=C/c2cccc3ccccc23)cc1 ; strain: INDO ; read-out: EC50 ; read by: SYBR Green / fluorescence ; value: 20 µM
COC(=O)c1ccc(-c2cc(Cl)cc(C3(C4CCC4)C(C#N)=C(N)Oc4n[nH]c(C)c43)c2)cc1 ; strain: NF54 ; read-out: EC50 ; read by: radiometric ; value: 0.08 µM
NC(=O)C(CCC[NH3+])NC(=O)CCCCCCCCCCCNC(=O)C(CCCC[NH3+])NC(=O)CCCCCCCCCCCNC(=O)C(CCCC[NH3+])NC(=O)CCCCCCCCCCCNC(=O)C(N)CCCC[NH3+] ; strain: FCR3 ; read-out: EC50 ; read by: hypoxanthine uptake ; value: 1.6 µM
NCCCC[C@H](N)C(=O)N(O)C1C[C@@H](C(N)=O)N(C(=O)c2ccc(-c3cccc([N+](=O)[O-])c3)o2)C1 ; strain: 3D7 ; read-out: EC50 ; read by: flow cytometry ; cell line: Red blood cells ; setting: 48 h ; value: 172 µM
CCc1ccc(Nc2nc(NCCNc3ccnc4cc(Cl)ccc34)nc(N3CCOCC3)n2)cc1 ; strain: D6 ; read-out: EC50 ; value: 0.47 µM
CCOc1ccccc1C(=O)n1cc(-c2ccnc(N)n2)c2ccccc21 ; strain: W2 ; read-out: EC50 ; read by: LDH ; value: >14.49 µM
NCCCCCCCC(=O)NC(CCCC[NH3+])C(=O)NCCCCCCCC(=O)NC(CCCC[NH3+])C(=O)NCCCCCCCC(=O)NC(CCCC[NH3+])C(N)=O ; strain: FCR3 ; read-out: EC50 ; read by: hypoxanthine uptake ; value: 100 µM
COc1ccc(Nc2nc(NCCNc3ccnc4cc(Cl)ccc34)nc(N3CCOCC3)n2)cc1 ; strain: D6 ; read-out: EC50 ; value: 0.25 µM
NCCSC[C@H](N)C(=O)N(O)C1C[C@@H](C(N)=O)N(C(=O)c2ccc3nc(-c4ccccc4Br)[nH]c3c2)C1 ; strain: 3D7 ; read-out: EC50 ; read by: flow cytometry ; cell line: Red blood cells ; setting: 96 h ; value: 84.7 µM
NCCCCCCCC(=O)NC(CCCC[NH3+])C(=O)NCCCCCCCC(=O)NC(CCCC[NH3+])C(N)=O ; strain: FCR3 ; read-out: EC50 ; read by: hypoxanthine uptake ; value: 120 µM
COc1cc(/C=C/C(=O)c2ccc(N3CCN(C)CC3)cc2)cc(OC)c1OC ; read-out: EC50 ; value: 4.7 µg/mL
COc1ccc2nc3cc(Cl)ccc3c(Nc3cc(CN4CCCC4)c(O)c(CN4CCCC4)c3)c2n1 ; strain: Clinical isolates ; read-out: EC50 ; value: 0.0135 µM
C=CCC[C@@H]1C[C@@H]2CCC[C@@H]3C[C@H](CCC=C)NC(=N1)N32 ; strain: D6 ; read-out: EC50 ; read by: LDH ; value: 6.27 µM
Cn1nc(C(F)(F)F)c(-c2ccc(Br)cc2)c1NC(=O)Nc1ccc(F)cc1F ; strain: KAE609R-1 ; read-out: EC50 ; read by: SYBR Green / fluorescence ; mutations: KAE609-resistant (I398F/P990R/D1247Y) ; value: 1.07 µM
NCCCCCCCC(=O)NC(CCCC[NH3+])C(=O)NCCCCCCCC(=O)NC(CCCC[NH3+])C(=O)NCCCCCCCC(=O)NC(CCCC[NH3+])C(=O)NCCCCCCCC(=O)NC(CCCC[NH3+])C(=O)NCCCCCCCC(=O)NC(CCCC[NH3+])C(=O)NCCCCCCCC(=O)NC(CCCC[NH3+])C(N)=O ; strain: FCR3 ; read-out: EC50 ; read by: hypoxanthine uptake ; value: 71 µM
Cc1[nH]nc2c1C(c1cc(C#N)cc(-c3ccc(C(=O)N(C)C)s3)c1)(C(C)C)C(C#N)=C(N)O2 ; strain: V1/S ; read-out: EC50 ; read by: radiometric ; value: 0.092 µM
CC[n+]1c(Nc2ccccc2)sc2c(C)c(O)c3ccccc3c21 ; strain: D10 ; read-out: EC50 ; read by: hypoxanthine uptake ; value: 10 µM
CC(Nc1ccc2c(c1)CCC2)C(=O)Nc1cc(C(F)(F)F)ccc1-n1cncn1 ; strain: 3D7A ; read-out: EC50 ; value: 0.146 µM
COc1cc(OC)c(OC)cc1/C=C/C=C/C(=O)c1ccc(Cl)cc1 ; strain: 3D7 ; read-out: EC50 ; read by: SYBR Green / fluorescence ; value: 22.5 µM
CCCC[C@@H]1C[C@@H]2CC[C@@H]3C[C@H](CCCC)NC(=N1)N32 ; strain: D6 ; read-out: EC50 ; read by: LDH ; value: 6.49 µM
CCCCNc1sc2c(C)c(O)c3ccc(C(C)=NN=C(N)N)cc3c2[n+]1C ; strain: D10 ; read-out: EC50 ; read by: hypoxanthine uptake ; value: 0.6 µM
CCC1(c2cc(Cl)cc(Cl)c2)C(C#N)=C(N)Oc2n[nH]c(C)c21 ; strain: NF54 ; read-out: EC50 ; read by: radiometric ; value: >2.86 µM
Clc1ccc2c(NCCCCNc3nc(Nc4ccccc4)nc(N4CCOCC4)n3)ccnc2c1 ; strain: D6 ; read-out: EC50 ; value: 0.29 µM
CN(Cc1ccc(Cl)cc1)Cc1ccc(CNc2ccnc3cc(Cl)ccc23)cc1 ; strain: K1 ; read-out: EC50 ; value: >1 µM
CC(C)CC(=O)O[C@@H]1[C@@H](OC(=O)CC(C)C)[C@H](O[C@]2(CO)O[C@H](CO)[C@@H](OC(=O)CC(C)C)[C@@H]2OC(=O)CC(C)C)O[C@H](CO)[C@H]1OC(=O)CC(C)C ; strain: Dd2 ; read-out: EC50 ; read by: SYBR Green ; cell line: Red blood cells ; value: 1.495 µg/mL
Cc1[nH]nc2c1C(c1cc(C#N)cc(-c3ccc(C(=O)O)s3)c1)(C(C)C)C(C#N)=C(N)O2 ; strain: TM90C2B ; read-out: EC50 ; read by: radiometric ; value: 1.25 µM
Nc1nccc(-c2cn(Cc3ccc(Cl)s3)c3ccccc23)n1 ; strain: W2 ; read-out: EC50 ; read by: LDH ; value: >14.49 µM
Cc1c(-c2ccc(-c3ccc(OC(C)(C)C)cc3)nc2)[nH]c2cc(F)ccc2c1=O ; strain: 3D7 ; read-out: EC50 ; read by: SYBR Green ; value: 0.075 µM
C[C@H]1Cc2c([nH]c3cc(F)c(F)cc23)[C@@]2(N1)C(=O)Nc1ccc(Cl)cc12 ; strain: GNF-Pf4492R-1 ; read-out: EC50 ; read by: SYBR Green / fluorescence ; mutations: GNF-Pf4492-resistant A211T ; value: 0.0000473 µM
COc1cc(C(=N)N)ccc1OCCCCOc1ccc(C(=N)N)cc1OC ; strain: D6 ; read-out: EC50 ; read by: hypoxanthine uptake ; value: 0.389 µM
CC1CC2CCC3CC(CCc4ccc(F)cc4)N=C(N1)N32 ; strain: W2 ; read-out: EC50 ; read by: LDH ; value: 13.24 µM
O=C(/C=C/C=C/c1ccc2c(c1)OCO2)c1ccc(Cl)cc1 ; strain: 3D7 ; read-out: EC50 ; read by: SYBR Green / fluorescence ; value: 50 µM
O=C(Nc1cc(C(F)(F)F)ccc1-n1cncn1)C1(c2ccccc2)CC1 ; strain: Dd2 ; read-out: EC50 ; value: 0.102 µM
N=C(N)c1ccc(NCCCCCCNc2ccc(C(=N)N)cc2)cc1 ; strain: W2 ; read-out: EC50 ; read by: hypoxanthine uptake ; value: 0.053 µM
COc1ccc(/C=C/C(=O)c2ccc(-n3ccnc3)cc2)c(OC)c1 ; read-out: EC50 ; value: 6.7 µg/mL
COc1cc2c(NC3CCN(C)CC3)nc(N3CCCN(C)CC3)nc2cc1O ; strain: 3D7 ; read-out: EC50 ; read by: fluorescence ; value: >2 µM
COc1ccc(/C=C/C(=O)c2ccc(-n3cncn3)cc2)c(OC)c1 ; read-out: EC50 ; value: 3.38 µg/mL
Cc1[nH]nc2c1C(c1cc(C#N)cc(N3CCN(C(=O)OCc4ccccc4)CC3)c1)(C(C)C)C(C#N)=C(N)O2 ; strain: NF54 ; read-out: EC50 ; read by: radiometric ; value: 0.25 µM
O=C(/C=C/C=C/c1ccc2c(c1)OCO2)c1ccc(Cl)c(Cl)c1 ; strain: 3D7 ; read-out: EC50 ; read by: SYBR Green / fluorescence ; value: 50 µM
Cc1[nH]nc2c1C(c1cc(C#N)cc(N3CCCC3=O)c1)(C1CCC1)C(C#N)=C(N)O2 ; strain: NF54 ; read-out: EC50 ; read by: radiometric ; value: >2.41 µM
NCCCCNc1ccnc2cc(Cl)ccc12 ; strain: K1 ; read-out: EC50 ; read by: LDH ; value: 2.74 µM
C#CCCC1CC2CCCC3CC(C)NC(=N1)N23 ; strain: D6 ; read-out: EC50 ; read by: LDH ; value: 17.14 µM
CN(Cc1ccc(N(C)C)cc1)Cc1cccc(CNc2ccnc3cc(Cl)ccc23)c1 ; strain: D10 ; read-out: EC50 ; value: >1 µM
CCN(CC)CCCC(C)NC(=O)c1ccc(-c2cc(C#N)cc(C3(C(C)C)C(C#N)=C(N)Oc4n[nH]c(C)c43)c2)s1 ; strain: NF54 ; read-out: EC50 ; read by: radiometric ; value: 2.51 µM
NCCC1=c2c(O)c3c(c(O)c2N=C1)=NC=CS3(=O)=O ; strain: 3D7 ; read-out: MIC ; value: 0.051 µM
Cc1[nH]nc2c1C(c1cc(C#N)cc(-c3ccnn3C)c1)(C1CCC1)C(C#N)=C(N)O2 ; strain: NF54 ; read-out: EC50 ; read by: radiometric ; value: 1.09 µM
COc1ccc(/C=C/C(=O)c2ccc(-n3cccc3)cc2)cc1OC ; read-out: EC50 ; value: 6.28 µg/mL

The last 9 rows once more:

structure	strain	read-out	read by	cell line	setting	mutations	value
O=C(/C=C/C=C/c1ccc2c(c1)OCO2)c1ccc(Cl)c(Cl)c1	3D7	EC50	SYBR Green / fluorescence	-	-	-	50 µM
Cc1[nH]nc2c1C(c1cc(C#N)cc(N3CCCC3=O)c1)(C1CCC1)C(C#N)=C(N)O2	NF54	EC50	radiometric	-	-	-	>2.41 µM
NCCCCNc1ccnc2cc(Cl)ccc12	K1	EC50	LDH	-	-	-	2.74 µM
C#CCCC1CC2CCCC3CC(C)NC(=N1)N23	D6	EC50	LDH	-	-	-	17.14 µM
CN(Cc1ccc(N(C)C)cc1)Cc1cccc(CNc2ccnc3cc(Cl)ccc23)c1	D10	EC50	-	-	-	-	>1 µM
CCN(CC)CCCC(C)NC(=O)c1ccc(-c2cc(C#N)cc(C3(C(C)C)C(C#N)=C(N)Oc4n[nH]c(C)c43)c2)s1	NF54	EC50	radiometric	-	-	-	2.51 µM
NCCC1=c2c(O)c3c(c(O)c2N=C1)=NC=CS3(=O)=O	3D7	MIC	-	-	-	-	0.051 µM
Cc1[nH]nc2c1C(c1cc(C#N)cc(-c3ccnn3C)c1)(C1CCC1)C(C#N)=C(N)O2	NF54	EC50	radiometric	-	-	-	1.09 µM
COc1ccc(/C=C/C(=O)c2ccc(-n3cccc3)cc2)cc1OC	-	EC50	-	-	-	-	6.28 µg/mL

Blank or dashed fields: not listed here. Rows are shuffled and stem from different studies.